Consider 4 molecules from patent US20110166072A1, “Methods of treating αvβ3 integrin-associated diseases by administering polypeptides selective for αvβ3 integrin” (NATIONAL CHENG KUNG UNIVERSITY, published 2011).

Where a chain is given by its changes, count along the chain named.

Experiment [1] addresses platelet glycoprotein αIIbβ3 (on human platelets) (human, UniProt P08514 32-1039; P05106 27-788). The experiment in a line: cell-based or functional assay.
Experiment [2] addresses integrin αvβ3 (on rat osteoclast precursors) (rat). As to the kind of experiment: cell-based or functional assay.

B1: Rhodostomin (ligand)
chain: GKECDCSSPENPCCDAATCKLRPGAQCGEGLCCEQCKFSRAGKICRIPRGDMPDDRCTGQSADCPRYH
B1: the “Platelet aggregation IC50” value in experiment [1] came out at 83 nM. Moreover, the “Osteoclastogenesis IC50” value in experiment [2] came to 5.52 nM.

B2: Rhodostomin variant ^48PRGDDL^53 (ligand)
chain: B1 chain with M52D, P53L
As to B2, the “Platelet aggregation IC50” value in experiment [1] was 396 nM. Further, the “Osteoclastogenesis IC50” value in experiment [2] amounted to 3.15 nM.

B3: PGP (rhodostomin variant ^48PRGDGP^53) (ligand)
chain: B1 chain with M52G
Regarding B3, the “Platelet aggregation IC50” value in experiment [1] was determined as 283 nM. Further, the “Osteoclastogenesis IC50” value in experiment [2] was determined as 5.76 nM.

B4: Rhodostomin variant ^48ARGDDL^53 (ligand)
chain: B1 chain with P48A, M52D, P53L
On to B4, for which, in experiment [1], the “Platelet aggregation IC50” value amounted to 455 nM. In addition, the “Osteoclastogenesis IC50” value in experiment [2] was determined as 8.02 nM.
